Measured values published in PMC11409218, “Metal(triphenylphosphine)-atovaquone Complexes: Synthesis, Antimalarial Activity, and Suppression of Heme Detoxification” (Inorganic Chemistry, 2024).

System: P. falciparum 3D7 (CQ-susceptible strain)
Assay: Antiplasmodial activity, asexual blood stages, HRP2 ELISA-based assay, 3D7 strain
Format: cell-based, Plasmodium falciparum
Settings: CC50 (J774)/IC50(3D7)
Description: We determined the half-maximal inhibitory concentration (IC50) of the complexes against asexual blood stages of P. falciparum using CQ-susceptible and CQ-resistant strains (Table 2). […]. Two strains were selected for the tests: the CQ-susceptible 3D7 strain (isolated in West Africa; obtained from MR4, VA, USA), and the CQ-resistant W2 strain (isolated in Indochina; obtained from MR4, VA, USA). Both were maintained in culture in RPMI 1640 (Invitrogen, Paisley, UK), supplemented with 10% human serum (Abcys S.A. Paris, France), and buffered with 25 mM HEPES and 25 mM NaHCO3. Parasites were grown in A-positive human blood (Etablissement Français du Sang, Marseille, France) in controlled atmospheric conditions that consisted of 10% O2, 5% CO2, and 85% N2 at 37 °C with 95% humidity. […]
For in vitro isotopic microtests, 25 μL/well of antimalarial drug and 200 μL/well of parasitized red blood cell suspension (final parasitemia 0.5%, final hematocrit 1.5%) were distributed into 96-well plates. The plates were incubated for 72 h at 37 °C in 85% N2, 10% O2, 5% CO2. After freezing and then thawing, the hemolyzed cultures were homogenized by vortexing the plates. The drug susceptibility assay was performed using the HRP2 ELISA-based assay of the Malaria Ag Celisa kit (ref KM2159, Cellabs PTY LDT, Brookvale, Australia), as described previously.[72] […] […]. IC50 are expressed as means of at least 5 to 7 independent experiments.

| Compound | Selectivity index (S.I.) |
| --- | --- |
| O=C1C([O][Cu]([PH](c2ccccc2)(c2ccccc2)c2ccccc2)[PH](c2ccccc2)(c2ccccc2)c2ccccc2)=C([C@H]2CC[C@H](c3ccc(Cl)cc3)CC2)C(=O)c2ccccc21 [Complex 3, [Cu(ATV)(PPh3)2]] | 1175 |
| [Au(ATV)(PPh3)]·2H2O [Complex 2] | 1333 |
| [Ag(ATV)(PPh3)2] [Complex 1] | 311 |
| [Cl][Au].c1ccc(P(c2ccccc2)c2ccccc2)cc1 [AuClPPh3, [Au(PPh3)Cl], reference compound] | 2.8 |
